Consider one substance from PMC7944940 (Dalton transactions (Cambridge, England : 2003), 2021).

For this experiment, the target named is PAN endonuclease (Influenza A virus, UniProt C3W5S0). Briefly: FRET-based enzymatic assay of PAN endonuclease inhibition. Type of experiment: biochemical. The following applies: read-out: IC50 (dark).

A word on the IC50: it is the concentration needed to halve the response being measured. Turning to “[Ru(2,2´-bipyridine)2(pyridine)2][Cl]2 [Compound 9]”, the IC50 was greater than 100 µM.
